Source: PMC6358911, “Rationally Designed α-Conotoxin Analogues Maintained Analgesia Activity and Weakened Side Effects” (2019)
Entries after “also recorded” stand apart in the source; their conditions may differ. Not every entry of the source has a single result; some have several. The other results are left out here. The source may hold further records. The values listed for one entry do not match, cause unknown; some may be repeats, others may stem from another dose, organism or construct than stated.

System: C. elegans
Assay: Lethality of C. elegans
Settings: L1-larvae, 22 °C, 48 h, three wells; vs M9 buffer control

CC(C)C[C@@H]1NC(=O)[C@H](C(C)C)NC(=O)[C@H](C)NC(=O)[C@@H]2CSSC[C@H](NC(=O)CN)C(=O)N[C@@H](CSSC[C@@H](C(N)=O)NC(=O)[C@H](Cc3ccc(O)cc3)NC1=O)C(=O)N[C@@H](CO)C(=O)N[C@@H]([C@@H](C)O)C(=O)N1CCC[C@H]1C(=O)N1CCC[C@H]1C(=O)N2
lethality, in words: significantly higher than the other groups (P<0.05); also recorded: significantly higher than control group and analogue groups (P<0.05)
